Type in all cases: cell-based, Dengue virus
One data set concerns DENV-1 strain TC974#666. In words: Tetravalent RT-qPCR assay, serotype 1. The conditions noted are these: RT-qPCR serotype 1 TC974#666; selectivity index. The procedure:
(§1) The antiviral activity of the compounds of the invention was tested against DENV-1 strain TC974#666 (NCPV), DENV-2 strain 16681, DENV-3 strain H87 (NCPV) and DENV-4 strain H241 (NCPV) in a RT-qPCR assay. Therefore, Vero cells were infected with either DENV-1, or -2, or -3, or -4 in the presence or absence of test compounds. At day 3 post-infection, the cells were lysed and cell lysates were used to prepare cDNA of both a viral target (the 3′UTR of DENV; Table 2) and a cellular reference gene (β-actin, Table 2). Subsequently, a duplex real time PCR was performed on a Lightcycler480 instrument. The generated Cp value is inversely proportional to the amount of RNA expression of these targets. Inhibition of DENV replication by a test compound results in a shift of Cp's for the 3′UTR gene. On the other hand, if a test compound is toxic to the cells, a similar effect on β-actin expression will be observed. The comparative ΔΔCp method is used to calculate ECs50, which is based on the relative gene expression of the target gene (3′UTR) normalized with the cellular housekeeping gene (β-actin). In addition, CC50 values are determined based on the Cp values acquired for the housekeeping gene β-actin.
(§2) The culture medium consisted of minimal essential medium supplemented with 2% of heat-inactivated fetal calf serum, 0.04% gentamycin (50 mg/mL) and 2 mM of L-glutamine. Vero cells, obtained from ECACC, were suspended in culture medium and 75 μL/well was added in 96-well plates (10000 cells/well), which already contain the antiviral compounds. […] In addition, each plate contains wells which are assigned as virus controls (containing cells and virus in the absence of compound) and cell controls (containing cells in the absence of virus and compound). Once the cells were added in the plates, the plates were incubated in a fully humidified incubator (37° C., 5% CO2) until the next day. Dengue viruses serotype-1, 2, 3 and 4 were diluted in order to obtain a Cp of ˜22-24 in the assay. Therefore, 25 μL of virus suspension was added to all the wells containing test compound and to the wells assigned as virus control. In parallel, 25 μL of culture medium was added to the cell controls. Next, the plates were incubated for 3 days in a fully humidified incubator (37° C., 5% CO2). After 3 days, the supernatant was removed from the wells and the cells were washed twice with ice-cold PBS (˜100 μL). The cell pellets within the 96-well plates were stored at −80° C. for at least 1 day. Next, RNA was extracted using the Cells-to-CT™ lysis kit, according to the manufacturer's guideline (Life Technologies). The cell lysates can be stored at −80C or immediately used in the reverse transcription step.
(§3) In preparation of the reverse transcription step, mix A (table 3A) was prepared and 7.57 μL/well was dispensed in a 96-well plate. After addition of 5 μL of the cell lysates, a five minute denaturation step at 75° C. was performed (table 3B). Afterwards, 7.43 μL of mix B was added (table 3C) and the reverse transcription step was initiated (table 3D) to generate cDNA.
(§4) Finally, a RT-qPCR mix was prepared, mix C (table 4A), and 22.02 μL/well was dispensed in 96-well LightCycler qPCR plates to which 3 μL of cDNA was added and the qPCR was performed according to the conditions in table 4B on a LightCycler 480.
(§5) Using the LightCycler software and an in-house LIMS system, dose response curves for each compound were calculated and the half maximal effective concentration (EC50) and the half maximal cytotoxic concentration (CC50) were determined (Tables 5-8).
On the technique in general: Real-time PCR tracks product formation cycle by cycle.

The subject of another data set is DENV-4 strain H241. In words: Tetravalent RT-qPCR assay, serotype 4. The conditions noted are these: RT-qPCR serotype 4 H241; selectivity index. The procedure:
as §1, §2, §3, §4, §5

For the next data set, the system named is DENV-2 strain 16681. The experiment in a line: Tetravalent RT-qPCR assay, serotype 2. The conditions noted are these: RT-qPCR serotype 2 16681; selectivity index. The procedure: as §1, §2, §3, §4, §5
The test system of another data set is DENV-3 strain H87. The experiment in a line: Tetravalent RT-qPCR assay, serotype 3. The conditions noted are these: RT-qPCR serotype 3 H87; selectivity index. The procedure: as §1, §2, §3, §4, §5

The index is printed as in the source, without its formula. Some results are limits rather than exact numbers.

For the molecule `COc1cc(NC(C(=O)N2CCc3ccc(OC(F)(F)F)cc32)c2ccc(Cl)cc2)cc(OCC2(F)CC2C(=O)O)c1` (centres unmarked) [Compound 28BB], the SI is above 29800 with DENV-1 strain TC974#666, above 58 in the data set on DENV-4 strain H241, above 19900 in the data set on DENV-2 strain 16681 and above 1680 in the data set with DENV-3 strain H87.

`COc1cc(NC(C(=O)N2CCc3ccc(OC(F)(F)F)cc32)c2ccc(Cl)cc2)cc(OCC2(F)CC2C(=O)O)c1` (centres unmarked) [Compound 29AB]: the SI is above 5680 in the data set on DENV-1 strain TC974#666, 118 in the data set on DENV-4 strain H241, above 5180 in the data set on DENV-2 strain 16681 and above 264 in the data set on DENV-3 strain H87.

As for `COc1cc(NC(C(=O)N2CCc3ccc(OC(F)(F)F)cc32)c2ccc(Cl)cc2)cc(OCC2(F)CC2C(=O)O)c1` (centres unmarked) [Compound 29BB], the SI was above 30400 with DENV-1 strain TC974#666, 2790 in the data set with DENV-4 strain H241, above 60200 in the data set with DENV-2 strain 16681 and above 3050 in the data set on DENV-3 strain H87.

On to `COc1cc(NC(C(=O)N2CCc3cc(F)c(OC(F)(F)F)cc32)c2ccc(Cl)cc2)cc(OCC2CC(C(=O)O)C2)c1` (centres unmarked) [Compound 30A], for which the SI in the data set on DENV-1 strain TC974#666 is reported as above 54900; with DENV-4 strain H241 it was 399; with DENV-2 strain 16681 it was above 65700; in the data set on DENV-3 strain H87 it was above 840.

Turning to `COc1cc(NC(C(=O)N2CCc3cc(F)c(OC(F)(F)F)cc32)c2ccc(Cl)cc2)cc(OCC2CC(C(=O)O)C2)c1` (centres unmarked) [Compound 31A], the SI with DENV-1 strain TC974#666 is recorded as above 6090; with DENV-4 strain H241, 445; in the data set with DENV-2 strain 16681, above 11600; with DENV-3 strain H87 it was above 791.
